Consider five molecules from PMC7217864, “Legionella effector MavC targets the Ube2N~Ub conjugate for noncanonical ubiquitination” (Nature Communications, 2020).

B1: C74A-MavC_(1–384) (domain or fragment)
chain: MTTSKLEKTGLHVHEKIKHMVKNYGTMITGIPAEILGQNEAEISVGYVKKMGNMKENIAEVVRKSEMTQPTNSAGKASNEVCDLLLGTEGASEFEKSSYQVLSGDGSNLKGSLPNKNLLVRVEMDRFNAPQKYQKIKREEFNPETAEKNKIYLLEDQLVYLDIFGKVIDLGQTSDTCHRLFNAITTPFYQNYILYDEYIDPEESAEEAAMFEMGEIVKAKMKNIDCWTATHSFTIFVPESDSEDTRTLYPYQAYWTSHTLQQWFSGDKDEKLSRLGIDGYIEKLALLGTTTDSKIRSSIYGELFSPPGKEHVFCTGMNEKFSPLRVKFKVTEVNPEIALQNLEEVQEFIDTNYPGENAKDQCELYKIKAQEAMTKQLEMRLLIE
B2: GST-MavCINS (domain or fragment)
chain: NAPQKYQKIKREEFNPETAEKNKIYLLEDQLVYLDIFGKVIDLGQTSDTCHRLFNAITTPFYQNYILYDEYIDPEESAEEAAMFEMGEIVKAKMKNID
B3: MavC insertion domain (MavC_(128–225)), purified (domain or fragment)
chain: B2 chain
B4:  (domain or fragment)
chain: B2 chain
B5: Ube2N (full-length) (enzyme, UniProt P61088 1-152, looked up)
chain: MAGLPRRIIKETQRLLAEPVPGIKAEPDESNARYFHVVIAGPQDSPFEGGTFKLELFLPEEYPMAAPKVRFMTKIYHPNVDKLGRICLDILKDKWSPALQIRTVLLSIQALLSAPNPDDPLANDVAEQWKTNEAQAIETARAWTRLYAMNNI
notes: also called Ubc13

Like-named read-outs stand apart in the source and are kept apart here.

Assay [1] concerns the target Ubiquitin (wild type) (UniProt P0CG48 1-76).
Assay [2] addresses Ub–Ube2N, transglutaminase crosslinked product (UniProt P61088 1-152; P0CG48 1-76).
Assay [3] addresses B5. The assay is described as follows: pull-down.
The target of assay [4] is B5.
The target of assay [5] is GST-MavC_(1–462) (Legionella pneumophila, UniProt Q5ZTL4 1-462). The experiment in a line: pull-down.

For the molecule B1, the binding result in assay [1] and in assay [2] was “binds” in each case.
As for B2, the binding result in assay [3] was “binds”.
For B3, the binding result in assay [4] is “binds”.
Consider B4, for which the binding result in assay [4] is listed as “binds”.
For B5, the binding result in assay [5] was “binds”.
